Compound potency records, mixed from different reports. Data source: NIAID ChemDB in PubChem.

All rows: enzyme or target tests

Percent inhibition refers to the dose given; in toxicity tests it is the harm to the cells. Neighbouring rows are from separate reports. ICn is the concentration giving n% inhibition. Fold resistance: result on the changed form divided by that on wild type. Two numbers with a dash give a range or band. An empty or dashed field is not shown.

compound,tested at,mutations,organism,method,strain,protein,read-out,value
Nc1ccn([C@@H]2CS[C@H](COP(=O)(O)OP(=O)(O)OP(=O)(O)O)O2)c(=O)n1,,RT-K65R K103N Q151M,HIV,radiometric,,Reverse transcriptase,fold resistance,0.52
CC(C)OC(=O)NCCCC(C)(C)CN(C[C@@H](O)[C@H](Cc1ccccc1)NC(=O)O[C@H]1CO[C@H]2OCC[C@H]21)S(=O)(=O)c1ccc(N)cc1,,,HIV-1,fluorescence,,Protease,Ki,<0.001 µM
O=C(Nc1cn2ccn(Cc3cccc(Cl)c3)c(=O)c2c(O)c1=O)c1ccncc1,,,HIV-1,ELISA,,Integrase,IC50,<0.01 µM
CN(C)C(=O)NCCCC(C)(C)CN(C[C@@H](O)[C@H](Cc1ccccc1)NC(=O)O[C@H]1CO[C@H]2OCC[C@H]21)S(=O)(=O)c1cccc2c1OCO2,,,HIV-1,fluorescence,,Protease,Ki,<0.001 µM
O=C(COc1ccc(NC(=O)CSc2nnnn2-c2ccc(C3CC3)cc2Cl)c(Cl)c1)NCCc1cccc[n+]1[O-],,,HIV-1,PicoGreen / fluorescence,WT,Reverse transcriptase,IC50,<1 µM
CC(C)(CCCNS(C)(=O)=O)CN(C[C@@H](O)[C@H](Cc1ccccc1)NC(=O)O[C@H]1CO[C@H]2OCC[C@H]21)S(=O)(=O)c1cccc(N)c1,,,HIV-1,fluorescence,,Protease,Ki,<0.001 µM
CC(C)(C)c1ccc(-n2nnnc2SCC(=O)Nc2ccc(OCC(=O)Nc3ccc(CC(=O)O)cc3)cc2Cl)c(Cl)c1,,,HIV-1,PicoGreen / fluorescence,WT,Reverse transcriptase,IC50,<1 µM
CC(C)(CCN=C(N)NC#N)CN(C[C@@H](O)[C@H](Cc1ccccc1)NC(=O)O[C@H]1CO[C@H]2OCC[C@H]21)S(=O)(=O)c1ccc2c(c1)OCO2,,,HIV-1,fluorescence,,Protease,Ki,<0.001 µM
CC(C)(C)c1ccc(-n2nnnc2SCC(=O)Nc2ccc(C(=O)Nc3ccc(CC(=O)O)cc3)cc2Cl)c(Cl)c1,,RT-K103 Y181C,HIV-1,PicoGreen / fluorescence,,Reverse transcriptase,IC50,<1 µM
O=C1c2c(O)c(=O)c(-c3cnccn3)cn2CCN1Cc1ccc(Cl)c(Cl)c1,,,HIV-1,ELISA,,Integrase,IC50,0.01–0.1 µM
CC(C)(CCCCN)CN(C[C@@H](O)[C@H](Cc1ccccc1)NC(=O)OC1COCOC1)S(=O)(=O)c1ccc(N)cc1,,,HIV-1,fluorescence,,Protease,Ki,<0.001 µM
CS(=O)(=O)C[C@H](NC(=O)COc1cccc2ccccc12)C(=O)N[C@@H](Cc1ccccc1)[C@H](O)C(=O)N1CSC[C@H]1C(=O)N[C@H](C(N)=O)c1ccccc1,,,HIV-1,,,Protease,IC50,>0.05 µM
O=C1c2c(O)c(=O)c(-c3ccncn3)cn2CCN1Cc1ccc(Cl)cc1,,,HIV-1,ELISA,,Integrase,IC50,0.01–0.1 µM
CC[C@@H](C)[C@H](NC(=O)C1CCCN1C(=O)[C@@H](O)[C@H](Cc1ccccc1)NC(=O)[C@H](CCS(C)(=O)=O)NC(=O)CCc1ccccc1)C(=O)N[C@H](C(N)=O)C(C)C,0.05 µM,,HIV-1,,,Protease,inhibition,3.2%
CN(Cc1ccccc1)C(=O)c1cn2ccn(Cc3cccc(Cl)c3)c(=O)c2c(O)c1=O,,,HIV-1,ELISA,,Integrase,IC50,<0.01 µM
CC(C)(C#Cc1ccc(NC(=O)CSc2nnnn2-c2ccc(C3CC3)cc2Cl)c(Cl)c1)OCCN1CCCC1=O,,RT-K103 Y181C,HIV-1,PicoGreen / fluorescence,,Reverse transcriptase,IC50,<1 µM

For reference, 2 entries again:

compound	tested at	mutations	organism	method	strain	protein	read-out	value
O=C1c2c(O)c(=O)c(-c3cnccn3)cn2CCN1Cc1ccc(Cl)c(Cl)c1			HIV-1	ELISA		Integrase	IC50	0.01–0.1 µM
O=C(COc1ccc(NC(=O)CSc2nnnn2-c2ccc(C3CC3)cc2Cl)c(Cl)c1)NCCc1cccc[n+]1[O-]			HIV-1	PicoGreen / fluorescence	WT	Reverse transcriptase	IC50	<1 µM